{"source": "paper PMC4066776", "molecular_target": "T1, WT DprA (Streptococcus pneumoniae) (UniProt Q8DPI7)", "T1 sequence (looked up, limits assumed)": "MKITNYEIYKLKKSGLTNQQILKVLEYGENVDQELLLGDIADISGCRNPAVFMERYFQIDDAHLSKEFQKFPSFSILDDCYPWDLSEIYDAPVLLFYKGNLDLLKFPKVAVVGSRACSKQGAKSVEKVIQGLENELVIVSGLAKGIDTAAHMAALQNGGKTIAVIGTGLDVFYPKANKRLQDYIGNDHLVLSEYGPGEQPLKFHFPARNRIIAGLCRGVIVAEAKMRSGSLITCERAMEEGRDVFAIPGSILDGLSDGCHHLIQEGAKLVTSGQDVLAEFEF", "assay": "pull-down", "details": "20-640 pmol protein, 80 pmol DNA; Pull-down: 200 mM NaCl, 20 mM Tris-HCl pH 7.5, 20 C, 30 min; recombinant protein; single-stranded DNA", "note": "Construct, isoform or probe ends are uncertain for at least one entry. At least one verdict rests on a figure or table, not on a statement of the authors. Where a protein sequence is shown, tags need not be part of it.", "data": [{"sequence": "CGTCGTTTTACAACGTCGTGACTGGGAAAACCCTGGCGTTACCCAACTTAATCGCCTTGCAGCA [65-mer oligonucleotide]", "values": [{"measurement": "binding result", "result": "binds"}]}]}
